Data: article PMC12169104, “Towards the development of supramolecular self-associating amphiphiles as antibiofilm agents against Pseudomonas aeruginosa and Candida albicans biofilms” (Journal of Materials Chemistry. B, 2025)

Experiment: Membrane permeability and adhesion assay (1H CPMG NMR; PF and MAF)
Conditions: 1 = most; for MAF rank: 8 = least membrane adherent; for PF rank: 8 = least phospholipid membrane permeable
Source text: Finally, in line with our previous work, we moved to characterise the membrane adhesion and permeation events of 1–5 and co-formulations a–j with PE : PG 1 : 1 synthetic phospholipid vesicles.[53] This vesicle composition was prioritised for further analysis as this composition acts as a model for an AMR resistant strain of the ESKAPE pathogen P. aeruginosa,[54,55] categorised as high priority by the WHO.[33] As summarised in Table 4, membrane permeation (PF) and membrane adhesion factors (MAF) for the SSA anionic components were calculated through the use of ^1H CPMG NMR spectroscopy experiments, using vesicles produced by extrusion through a 1000 nm polycarbonate membrane.
Here the lower the MAF, the stronger the adhesion of the molecule to the surface of the phospholipid membrane. […] A PF value of 1 or above provides evidence of SSA permeation. The greater this value above 1, the greater the membrane permeation potential of a compound. […]
Membrane permeability and adhesion assay, determining membrane adhesion factors (MAF) and permeation factors (PF): Lipid vesicles of DOPE and PG, in a 1:1 ratio by weight were prepared as described in ‘preparation of vesicles’ with one alteration. Here vesicles were extruded 21 times through a 1000 nm polycarbonate membrane. NMR samples were prepared containing: SSA ( 200 µM), 95% HEPES buffer (HEPES (10 mM), NaCl (10 mM)) and 5% D 2O, and sodium trimethylsilylpropanesulfonate - DSS (1 µM). In order to calculate the PF and MAF the paramagnetic relaxation enhancement agent (PRE), gadodiamide (1 mM) was added to the NMR mixture. Where lipid vesicles were present in the NMR mixture, vesi cles were added at a concentration of 0.1 mg/mL.
All 1H CPMG NMR spectra were collected with a spin -lock time of 150 mS on a Bruker Avance III spectrometer equipped with a cold probe at a proton frequency of 600 MHz and recorded at 298 K.
Peak intensities were measured using MestReNova (Mestrelab Research). The MAF and PF were determined using previously published method. 3 For individual SSAs, MAF and PF were calculated using all aromatic CH resonances. For SSA co -formulations an average MAF and PF were calculated using all aromatic CH resonances. For individual components of the SSA co -formulations, the resonances for the different SSA anions were treated independently of one another.

Structure (SMILES)	MAF rank	PF rank
O=S(=O)(O)CCCNC(=S)Nc1ccc(C(F)(F)F)cc1 [SSA 1]	8	4
O=C(O)CNC(=S)Nc1ccc(C(F)(F)F)cc1 [SSA 2]	6	5
Cc1ccc2nc(-c3ccc(NC(=O)NCS(=O)(=O)O)cc3)sc2c1 [SSA 3]	1	8
O=c1c(NCCCS(=O)(=O)O)c(Nc2ccc(C(F)(F)F)cc2)c1=O [SSA 4]	=2	1
O=C(O)CNc1c(Nc2ccc(C(F)(F)F)cc2)c(=O)c1=O [SSA 5]	=2	7
